Pooled drug test results. Numbers come from NIAID ChemDB, via PubChem.

Shared fields: tests in culture; agent: Mycobacterium avium; endpoint: MIC

An empty or dashed field is not shown.

smiles | strain | conditions | result
O=c1oc2ccc(Cl)cc2c(=S)n1-c1ccc(F)cc1 | MY330/88 | 21 d | 62.5 µM
Cc1ccc(/C=N/N=C(\N)c2ccncc2)cc1 | INH resistant | - | 32 µg/mL
Cc1cccc(Nc2nc(C(N)=S)cnc2C(N)=O)c1 | 80/72 | - | >100 µg/mL
Oc1ccccc1C(=S)NCc1ccc(Cl)c(Cl)c1 | MY330/88 | - | 0.98 µg/mL
FC(F)(F)c1nc2c(Cl)cc(Cl)cc2[nH]1 | MY330/88 | - | 62.5 µM
Cc1ccc(C(Cn2ccnc2)OCc2ccc(-c3ccccc3)cc2)cc1 | CIP103317 | - | 4 µg/mL
NC(=O)c1cnccn1 | 330/88 | 21 d | >1000 µM
NC(=O)c1ncc(C(N)=S)nc1N1CCCCC1 | 80/72 | - | >100 µg/mL
CN1C(NNC(=O)c2cnccn2)=NS(=O)(=O)c2ccccc21 | ATCC49601 | - | 2 µg/mL
Clc1ccc(CNc2ccc(-n3ccnc3)cc2)cc1 | 103317 | - | 1 µg/mL
CCCN(CCC)c1nc(C(N)=S)cnc1C(N)=O | 80/72 | - | >100 µg/mL
FC(F)(F)C(F)(F)c1nc2c(Br)c(Br)c(Br)c(Br)c2[nH]1 | MY330/88 | - | 125 µM
CN1C(NC(=O)c2cnccn2)=NS(=O)(=O)c2cc(Cl)ccc21 | ATCC49601 | - | >16 µg/mL
c1ccc(-c2ccc(CNc3ccc(-n4ccnc4)cc3)cc2)cc1 | 103317 | - | 4 µg/mL
COc1cc(/C=N/N=C(\N)c2ccncc2)cc(OC)c1OC | INH resistant | - | 256 µg/mL
Cc1ccc(-n2c(=O)oc3ccc(Br)cc3c2=S)cc1 | MY330/88 | 14 d | 32 µM
CCCCCOc1ccccc1NC(=O)OCC[N+]1(CCC)CCCCC1 | MY330/88 | - | 500 µM
FC(F)(F)C(F)(F)C(F)(F)C(F)(F)c1nc2c(Br)cc(Br)cc2[nH]1 | MY330/88 | - | 16 µM
CCCNc1nc(C(N)=S)cnc1C(N)=O | 80/72 | - | >100 µg/mL
Cc1ccc2oc(=O)n(-c3ccc(Cl)c(Cl)c3)c(=S)c2c1 | MY330/88 | 14 d | 8 µM
O=C(Oc1ccc(Cl)cc1)c1cnccn1 | 330/88 | 14 d | 500 µM
O=C(Nc1ccccc1N1CCSCC1)c1ccc(-c2ccccc2)cc1 | 103317 | - | >16 µg/mL
CCCCCCOc1ccccc1NC(=O)OCCN1CCOCC1 | MY330/88 | - | 125 µM
Clc1ccc(C(Cn2ccnc2)OC/C=C/c2ccccc2)c(Cl)c1 | CIP103317 | - | 8 µg/mL
CCN1C(NNC(=O)c2cccnc2)=NS(=O)(=O)c2ccccc21 | ATCC49601 | - | >16 µg/mL
NNC(=O)c1ccncc1 | - | - | 5 µg/mL
C=CCN(CC=C)c1nc(C(N)=S)cnc1C(N)=O | 80/72 | - | >100 µg/mL
CC(C)N=c1cc2n(-c3ccc(Cl)cc3)c3ccccc3nc-2cc1Nc1ccc(Cl)cc1 | 11279 | - | 1 µg/mL
CC1=CCC[C@@]2(C)O[C@H]2[C@H]2OC(=O)[C@@H](C)[C@@H]2CC1 | - | - | 128 µg/mL
CC(C)CNc1nc(C(N)=S)cnc1C(N)=O | 80/72 | - | >100 µg/mL
Cc1ccc(C(Cn2ccnc2)OC/C=C/c2ccccc2)cc1 | CIP103317 | - | 0.5 µg/mL
O=C(Nc1ccc(Cl)c(Cl)c1)c1ccccc1O | CNCTC MY330/88 | - | 31 µM
Cc1ccc(C(Cn2ccnc2)OCc2cccc3ccccc23)cc1 | CIP103317 | - | 0.5 µg/mL
O=C(Oc1ccc(Cl)cc1C(=O)Nc1cccc(Cl)c1)c1cnccn1 | 330/88 | 14 d | 8 µM
Cc1ccc(C)c(/C=N/N=C(\N)c2ccncc2)c1 | INH resistant | - | 256 µg/mL
O=C(Nc1ccc(Br)cc1)c1ccccc1O | CNCTC MY330/88 | - | 31 µM
FC(F)(F)C(F)(F)c1nc2cc(Cl)c(Cl)cc2[nH]1 | MY330/88 | - | 32 µM
c1ccc(C(Cn2ccnc2)OCc2cccc3ccccc23)cc1 | CIP103317 | - | 2 µg/mL
CCOc1ccccc1NC(=O)OCCN1CCCCC1 | MY330/88 | - | >1000 µM
CN1C(NNC(=O)c2cnccn2)=NS(=O)(=O)c2ccc(Cl)cc21 | ATCC49601 | - | >16 µg/mL
c1ccc(-c2ccc(COC(Cn3ccnc3)c3ccccc3)cc2)cc1 | CIP103317 | - | 1 µg/mL
O=C(Nc1ccc(Cl)cc1)c1ccccc1O | CNCTC MY330/88 | - | 31 µM
CN1C(NNC(=O)c2cccnc2)=NS(=O)(=O)c2ccccc21 | ATCC49601 | - | >16 µg/mL
CC(C)(C)c1ccc(CNC(=S)c2ccccc2O)cc1 | MY330/88 | - | 0.25 µg/mL
CCCCOc1ccccc1NC(=O)OCCN1CCCCC1 | MY330/88 | - | 62.5 µM
CN1C(NNC(=O)c2cccnc2)=NS(=O)(=O)c2ccc(Cl)cc21 | ATCC49601 | - | >16 µg/mL
Cc1ccc2oc(=S)n(-c3ccccc3)c(=S)c2c1 | MY330/88 | 14 d | 4 µM
COc1cccc(/C=N/N=C(\N)c2ccncc2)c1OC | INH resistant | - | 256 µg/mL
CN1C(NC(=O)c2ccc(Cl)nc2)=NS(=O)(=O)c2cc(Cl)ccc21 | ATCC49601 | - | >16 µg/mL
C(=C\c1ccccc1)/COC(Cn1ccnc1)c1ccccc1 | CIP103317 | - | 0.5 µg/mL
N#Cc1ccc(/C=N/N=C(\N)c2ccncc2)cc1 | INH resistant | - | 256 µg/mL
O=[N+]([O-])c1cc(Sc2nc3c(Br)c(Br)c(Br)c(Br)c3[nH]2)cc([N+](=O)[O-])c1 | MY330/88 | - | >250 µM
O=C(Nc1cccc(Cl)c1)c1cc(Br)ccc1O | CNCTC MY330/88 | - | 31 µM
O=[N+]([O-])c1cc(Sc2nc3ccc(Cl)cc3[nH]2)cc([N+](=O)[O-])c1 | MY330/88 | - | 32 µM
N/C(=N\N=C\c1ccc(Cl)c([N+](=O)[O-])c1)c1ccncc1 | INH resistant | - | >256 µg/mL
CCCCCCCCCCCCc1ccc(NC(=O)C2=CCN(C)[C@@H]([C@H](O[C@@H]3O[C@H](CN)[C@@H](O)[C@H]3O)[C@H]3O[C@@H](n4ccc(=O)[nH]c4=O)[C@H](O)[C@@H]3O)C(=O)N2C)cc1 | ATCC 25291 | - | 6.25 µg/mL
CCCCCOc1ccc(NC(=O)OCCN2CCCCCC2)cc1 | MY330/88 | - | 16 µM
O=C(NNC1=NS(=O)(=O)c2ccccc2N1c1ccccc1)c1cnccn1 | ATCC49601 | - | >16 µg/mL
CCCCCCOc1ccccc1NC(=O)OCC[N+]1(CCCC)CCCCC1 | MY330/88 | - | 125 µM
CCCOc1ccc(NC(=O)OCCN2CCCC2)cc1 | MY330/88 | - | 250 µM
COC(=O)c1cnccn1 | 330/88 | 14 d | >500 µM
CCCCCCCCCCCC[N+]1(CCOC(=O)Nc2ccccc2OCCCCCC)CCCCC1 | MY330/88 | - | 8 µM
Clc1ccc(C(Cn2ccnc2)OCc2cccc3ccccc23)c(Cl)c1 | CIP103317 | - | 1 µg/mL
COc1ccc(CNC(=S)c2ccccc2O)cc1 | MY330/88 | - | 0.98 µg/mL
COc1ccc2oc(=O)n(-c3ccc(Cl)c(Cl)c3)c(=S)c2c1 | MY330/88 | 14 d | 62.5 µM

For reference, 8 entries again:

smiles | strain | conditions | result
COc1cccc(/C=N/N=C(\N)c2ccncc2)c1OC | INH resistant | - | 256 µg/mL
Cc1ccc(-n2c(=O)oc3ccc(Br)cc3c2=S)cc1 | MY330/88 | 14 d | 32 µM
CCCCCCCCCCCC[N+]1(CCOC(=O)Nc2ccccc2OCCCCCC)CCCCC1 | MY330/88 | - | 8 µM
O=C(Nc1ccc(Cl)cc1)c1ccccc1O | CNCTC MY330/88 | - | 31 µM
O=c1oc2ccc(Cl)cc2c(=S)n1-c1ccc(F)cc1 | MY330/88 | 21 d | 62.5 µM
CN1C(NNC(=O)c2cnccn2)=NS(=O)(=O)c2ccccc21 | ATCC49601 | - | 2 µg/mL
O=C(Nc1ccc(Cl)c(Cl)c1)c1ccccc1O | CNCTC MY330/88 | - | 31 µM
O=C(Oc1ccc(Cl)cc1C(=O)Nc1cccc(Cl)c1)c1cnccn1 | 330/88 | 14 d | 8 µM

Neighbouring rows are from separate reports.